Anti-infective test results gathered from many reports (values: NIAID ChemDB through PubChem).

All rows: growth or infection tests; agent: HIV-1; cell line: MT-4; read-out: EC50

Two numbers with a dash give a range or band. Neighbouring rows are from separate reports. An empty or dashed field is not shown. ECn: concentration that inhibits the pathogen or its effect by n%.

SMILES	strain	changes	read by	value
Cc1cn([C@@H]2O[C@H](CO[Si](C)(C)C(C)(C)C)C3(OC(=O)N(C)C3=N)[C@H]2O[Si](C)(C)C(C)(C)C)c(=O)n(C)c1=O	IIIB			>175 µM
Nc1ccn([C@H]2CC[C@@H](CO)O2)c(=O)n1			cytopathic effect / trypan blue	0.6 µM
CC(C)c1nc(CN(C)C(=O)N[C@H](C(=O)N[C@@H](Cc2ccccc2)C[C@H](O)[C@H](Cc2ccccc2)NC(=O)OCc2cncs2)C(C)C)cs1	NL4-3 B		cytopathic effect / MTT	0.047 µM
NCCCCCN1CCCN(CCCCCN)CCN(CCCCCN)CCCN(CCCCCN)CC1	LAV		syncytia	5 µM
COc1ccccc1N1CCN(CCCN2C(=O)CCC(c3ccccc3)C2=O)CC1			MTT	>100 µM
C[C@H](NC[C@H](CCCN=C(N)N)NC(=O)[C@H](CCCN=C(N)N)NC(=O)c1ccc(F)cc1)c1cccc2ccccc12			cytopathic effect	11 µM
C=C(COCP(=O)(O)O)Cn1cnc2c(=O)[nH]c(N)nc21	IIIB			6.6 µM
O=Nc1c(O)n(CCOCCn2c(O)c(N=O)c3ccccc32)c2ccccc12	IIIB		MTT	>238 µM
O=C(NCCCN1CCCN(CCCNC(=O)OCc2ccccc2)CCCN(CCCNC(=O)OCc2ccccc2)CCN(CCCNC(=O)OCc2ccccc2)CCC1)OCc1ccccc1	LAV		syncytia	>50 µM
O=S(=O)(O)OCC1OC2OC3C(COS(=O)(=O)O)OC(OC4C(COS(=O)(=O)O)OC(OC5C(COS(=O)(=O)O)OC(OC6C(COS(=O)(=O)O)OC(OC7C(COS(=O)(=O)O)OC(OC8C(COS(=O)(=O)O)OC(OC9C(COS(=O)(=O)O)OC(OC1C(OS(=O)(=O)O)C2OS(=O)(=O)O)C(OS(=O)(=O)O)C9OS(=O)(=O)O)C(OS(=O)(=O)O)C8OS(=O)(=O)O)C(OS(=O)(=O)O)C7OS(=O)(=O)O)C(OS(=O)(=O)O)C6OS(=O)(=O)O)C(OS(=O)(=O)O)C5OS(=O)(=O)O)C(OS(=O)(=O)O)C4OS(=O)(=O)O)C(OS(=O)(=O)O)C3OS(=O)(=O)O	NL4-3		cytopathic effect / MTT	0.14 µg/mL
COc1ccc(CN[C@@H](C(=O)N[C@H](C(=O)NCc2ccc(OC)cc2O)C(C)C)[C@H](O)[C@H](Cc2ccccc2)NC(=O)[C@@H](NC(=O)OCc2ccccc2)C(C)C)cc1	IIIB		cytopathic effect / MTT	0.033 µM
CCc1nc(SC)n(COCc2ccccc2)c1Cc1ccccc1	IIIB		cytopathic effect / MTT	>100 µM
COc1ccc(CN[C@@H](C(=O)N[C@H](C(=O)NCc2ccc(OC)cc2OC)C(C)C)[C@H](O)[C@H](Cc2ccccc2)NC(=O)[C@@H](NC(=O)OCc2ccccc2)C(C)C)cc1	IIIB		cytopathic effect / MTT	0.41 µM
COc1ccc(CN[C@@H](C(=O)N[C@H]2c3ccccc3C[C@H]2O)[C@H](O)[C@H](Cc2ccccc2)NC(=O)[C@@H](NC(=O)OCc2ccccc2)C(C)(C)C)cc1	IIIB		p24	0.058 µM
CC(=O)O[C@H]1C[C@@]2(C)[C@@H](C[C@@H](O)[C@H]3[C@@]4(C)CC[C@@H](O)[C@@H](C)[C@@H]4CC[C@@]32C)/C1=C(\CCC=C(C)C)C(=O)O			cytopathic effect / trypan blue	>20 µM
CC(C)(C)NC(=O)[C@@H]1C[C@@H]2CCCC[C@@H]2CN1C[C@@H](O)[C@H](Cc1ccccc1)NC(=O)[C@@H](NC(=O)c1ccc2ccccc2n1)[C@H]1CCSC1	IIIB		p24	<0.05 µM
CCO/N=C1\C(=O)N(CCOCCN2C(=O)/C(=N/OCC)c3cc(Cl)ccc32)c2ccc(Cl)cc21	IIIB		MTT	13.3 µM
O=c1ccn([C@H]2C[C@H](F)[C@@H](CO)O2)c(=O)[nH]1	IIIB		cytopathic effect	0.06 µM
Cc1ccc(-c2c(C)c(-c3ccc(C)c(C)c3)c3c(c2C(OC(C)(C)C)C(=O)O)CCC(=O)N3C)cc1C	IIIB		MTT	0.01 µM
Nc1ncnc2c1ncn2[C@H]1CC[C@@H](CO)O1			cytopathic effect / trypan blue	9.2 µM
COc1ccc(CCNc2nc(NC(=O)Nc3cccc(C)c3)nc(Oc3cc(=O)oc4ccccc34)n2)cc1OC	IIIB		MTT	>22.45 µg/mL
CC(C)(C)NC(=O)[C@@H]1CN(Cc2cccnc2)CCN1C[C@@H](O)C[C@@H](Cc1ccccc1)C(=O)N[C@H]1c2ccccc2C[C@H]1O	NL4-3 B		cytopathic effect / MTT	0.012 µM
CC(C)=CCc1cc([C@@H]2CC(=O)c3c(O)cc(O)c(CC=C(C)C)c3O2)ccc1O	IIIB		cytopathic effect / MTT	22 µg/mL
O=C(NCCCN1CCCN(CCCNC(=O)OCc2ccccc2)CCN(CCCNC(=O)OCc2ccccc2)CCCN(CCCNC(=O)OCc2ccccc2)CC1)OCc1ccccc1	LAV		syncytia	>50 µM
CCOc1ccc(NC(=O)Nc2nc(NCCc3ccc(OC)c(OC)c3)nc(Oc3cc(=O)oc4ccccc34)n2)cc1	IIIB		MTT	>30.15 µg/mL
CC(=O)c1ccc(C)cc1NC(C(N)=O)c1c(Cl)cccc1Cl	IIIB		MTT	0.0009 µg/mL
O=C(NCCCCCCN1CCCN(CCCCCCNC(=O)OCc2ccccc2)CCN(CCCCCCNC(=O)OCc2ccccc2)CCCN(CCCCCCNC(=O)OCc2ccccc2)CC1)OCc1ccccc1	LAV		syncytia	>1 µM
O=C1C[C@@H](c2ccc(O)cc2)Oc2cc(O)cc(O)c21	IIIB		cytopathic effect / MTT	>200 µg/mL
Cc1ccnc2c1NC(=O)c1cccnc1N2C1CC1	IIIB		MTT	0.01 µg/mL
Cc1cn([C@H]2C[C@H](N=[N+]=[N-])[C@@H](CO)O2)c(=O)[nH]c1=O	IIIB		cytopathic effect / MTT	0.0059–0.017 µM
NC(N)=NCCC[C@H](NC(=O)[C@@H](N)Cc1ccc2ccccc2c1)C(=O)N[C@@H](CCCN=C(N)N)C(=O)Oc1ccc(F)cc1			cytopathic effect	45 µM
CN(C)c1nc(N)c(C(=O)N[C@H](C(=O)N[C@@H](Cc2ccccc2)[C@H](O)CN2C[C@H]3CCCC[C@H]3C[C@H]2C(=O)NC(C)(C)C)[C@H]2CCOC2)nc1Cl	IIIB		p24	<0.025 µM
O=[N+]([O-])c1cccc2c1ncn2[C@@H]1O[C@H](CO)[C@@H](O)[C@H]1O	IIIB		cytopathic effect / MTT	>125 µg/mL
Cc1cn([C@H]2C[C@H](N=[N+]=[N-])[C@@H](CO)O2)c(=O)[nH]c1=O	IIIB		cytopathic effect / MTT	0.0011 µM
c1ccc(CNCCCCCN2CCCN(CCCCCNCc3ccccc3)CCCN(CCCCCNCc3ccccc3)CCN(CCCCCNCc3ccccc3)CCC2)cc1	LAV		syncytia	1 µM
COC(=O)c1nc(Cl)c(N[C@H](C(=O)N[C@@H](Cc2ccccc2)[C@H](O)CN2C[C@H]3CCCC[C@H]3C[C@H]2C(=O)NC(C)(C)C)[C@H]2CCOC2)nc1N	IIIB		p24	<0.003 µM
O=C1CCC(c2ccccc2)C(=O)N1CCCCN1CCN(c2ccccc2)CC1			MTT	>74 µM
CCO/N=C1\C(=O)N(CCOCCN2C(=O)/C(=N/OCC)c3ccccc32)c2ccccc21	IIIB		MTT	21.49 µM
CC(C)=CCN1Cc2cc(Cl)cc3[nH]c(=S)n(c23)C[C@@H]1C	NL4-3		cytopathic effect / MTT	0.0003 µg/mL
COc1ccc(CN[C@@H](C(=O)N[C@H](C(=O)NCCn2ccnc2)C(C)C)[C@H](O)[C@H](Cc2ccccc2)NC(=O)[C@@H](NC(=O)OCc2ccccc2)C(C)C)cc1	IIIB		cytopathic effect / MTT	1.6 µM
C[C@H](NC[C@H](CCCN=C(N)N)NC(=O)[C@H](CCCN=C(N)N)NC(=O)[C@@H](N)Cc1ccc(O)cc1)c1cccc2ccccc12			cytopathic effect	22 µM
CC(C)Nc1cccnc1N1CCN(C(=O)c2cc3cc(NS(C)(=O)=O)ccc3[nH]2)CC1	IIIB		MTT	0.32 µM
Nc1nc2c(ncn2CCOCP(=O)(O)O)c(=O)[nH]1	IIIB			0.54 µM
CN=C1N(C)C(=O)OC12[C@@H](CO[Si](C)(C)C(C)(C)C)O[C@@H](n1cc(C)c(=O)n(C)c1=O)[C@@H]2O[Si](C)(C)C(C)(C)C	IIIB			>7 µM
O=S(=O)(O)OCC1OC2OC3C(COS(=O)(=O)O)OC(OC4C(COS(=O)(=O)O)OC(OC5C(COS(=O)(=O)O)OC(OC6C(COS(=O)(=O)O)OC(OC7C(COS(=O)(=O)O)OC(OC8C(COS(=O)(=O)O)OC(OC1C(OS(=O)(=O)O)C2OS(=O)(=O)O)C(OS(=O)(=O)O)C8OS(=O)(=O)O)C(OS(=O)(=O)O)C7OS(=O)(=O)O)C(OS(=O)(=O)O)C6OS(=O)(=O)O)C(OS(=O)(=O)O)C5OS(=O)(=O)O)C(OS(=O)(=O)O)C4OS(=O)(=O)O)C(OS(=O)(=O)O)C3OS(=O)(=O)O	NL4-3		cytopathic effect / MTT	0.3 µg/mL
Cc1ccc(NC(=O)Nc2ccc(-c3ccc(NC(=O)Nc4ccc(-c5ccc(NC(=O)Nc6ccc(-c7ccc(NC(=O)Nc8ccc(-c9ccc(NC(=O)Nc%10ccc(-c%11ccc(NC(=O)Nc%12ccc(C)cc%12)cc%11S(=O)(=O)O)c(S(=O)(=O)O)c%10)cc9S(=O)(=O)O)c(S(=O)(=O)O)c8)cc7S(=O)(=O)O)c(S(=O)(=O)O)c6)cc5S(=O)(=O)O)c(S(=O)(=O)O)c4)cc3S(=O)(=O)O)c(S(=O)(=O)O)c2)cc1	RF		p24	1.58 µM
Nc1cccc2c1ncn2[C@@H]1O[C@H](CO)[C@@H](O)[C@H]1O	IIIB		cytopathic effect / MTT	>125 µg/mL
NCCCN1CCCN(CCCN)CCCN(CCCN)CCN(CCCN)CCC1	LAV		syncytia	10 µM
O=C1CCC(c2ccccc2)C(=O)N1CCCN1CCN(c2ccccn2)CC1			MTT	>100 µM
C#CC1(CO)CCC(n2ccc(N)nc2=O)O1	LAI		cytopathic effect / MTT	>10 µM
Cc1ccc(C(=O)Nc2ccc(S(=O)(=O)O)c3cc(S(=O)(=O)O)cc(S(=O)(=O)O)c23)cc1NC(=O)c1cccc(NC(=O)Nc2cccc(C(=O)Nc3cc(C(=O)Nc4ccc(S(=O)(=O)O)c5cc(S(=O)(=O)O)cc(S(=O)(=O)O)c45)ccc3C)c2)c1			cytopathic effect / trypan blue	32 µM
c1cc(CN2CCCNCCNCCCNCC2)ccc1CN1CCCNCCNCCCNCC1	NL4-3		cytopathic effect / MTT	0.004 µg/mL
Cc1ccc(NC(=O)Nc2ccc(-c3ccc(NC(=O)Nc4ccc(-c5ccc(NC(=O)Nc6ccc(-c7ccc(NC(=O)Nc8ccc(-c9ccc(NC(=O)Nc%10ccc(-c%11ccc(NC(=O)Nc%12ccc(-c%13ccc(NC(=O)Nc%14ccc(C)cc%14)cc%13S(=O)(=O)O)c(S(=O)(=O)O)c%12)cc%11S(=O)(=O)O)c(S(=O)(=O)O)c%10)cc9S(=O)(=O)O)c(S(=O)(=O)O)c8)cc7S(=O)(=O)O)c(S(=O)(=O)O)c6)cc5S(=O)(=O)O)c(S(=O)(=O)O)c4)cc3S(=O)(=O)O)c(S(=O)(=O)O)c2)cc1	RF		p24	0.41 µM
Cc1cn([C@H]2C[C@H](N=[N+]=[N-])[C@@H](CO)O2)c(=O)[nH]c1=O	IIIB		cytopathic effect / MTT	0.04 µg/mL
Cc1ccnc2c1NC(=O)c1cccnc1N2C1CC1		RT-D67N K70R T215Y K219Q Y181C		>3 µM
C[C@H](NC(=O)[C@H](CCCN=C(N)N)NC[C@H](CCCN=C(N)N)NC(=O)c1ccc(F)cc1)c1cccc2ccccc12			cytopathic effect	1.7 µM
CC(C)=CCC/C(C)=C/Cc1c(O)cc(O)c2c1O[C@H](c1ccc(O)cc1)CC2=O	IIIB		cytopathic effect / MTT	>200 µg/mL
CO/N=C1\C(=O)N(CCOCCN2C(=O)/C(=N/OC)c3cc(Cl)ccc32)c2ccc(Cl)cc21	IIIB		MTT	>193 µM
O=C(NCCCCN1CCCN(CCCCNC(=O)OCc2ccccc2)CCCN(CCCCNC(=O)OCc2ccccc2)CCN(CCCCNC(=O)OCc2ccccc2)CCC1)OCc1ccccc1	LAV		syncytia	>50 µM